Results of unrelated studies side by side (data: NIAID ChemDB).

All rows: whole-cell or culture tests; species: HIV-1; cells: MT-4; method: p24; measure: EC95

An empty or dashed field is not shown.

smiles,strain or isolate,mutations,value
O=C(NCc1ccc(F)cc1)c1nc2n(c(=O)c1O)CCN(Cc1cn[nH]n1)C2,,,<50 µM
CC(=O)N1CCCC(n2c(=O)c(O)c3n(c2=O)CCN(Cc2ccc(F)cc2)C3=O)C1,,,<10 µM
CN1CCc2nc(C(=O)NCc3ccc(F)cc3)c(O)c(=O)n2C1=O,,,<50 µM
O=C1c2c(O)c(=O)n([C@@H]3CCCC[C@H]3O)c(=O)n2CCN1Cc1ccc(F)cc1,,,<10 µM
Cc1ccc(-c2nnc(COc3ccc(Cl)c(Oc4cc(Cl)cc(C#N)c4)c3)o2)cc1,,,<20 µM
CN1CCn2c(nc(C(=O)NCc3ccc(F)c(Cl)c3)c(O)c2=O)C(N(C)C(=O)C(=O)N(C)C)C1,,,<1 µM
O=C1c2c(O)c(=O)n([C@@H]3C[C@H]3c3ccccc3)c(=O)n2CCN1Cc1ccc(F)cc1,,,<10 µM
CC1c2nc(C(=O)NCc3ccc(F)cc3)c(O)c(=O)n2CCN1Cc1ccnn1C,,,<1 µM
COC1CN(c2ccc3c(COc4ccc(Cl)c(Oc5cc(Cl)cc(C#N)c5)c4)[nH]nc3n2)C1,,,<20 µM
CC(C)(C)C1CCC(n2c(=O)c(O)c3n(c2=O)CCN(Cc2ccc(F)cc2)C3=O)CC1,,,<10 µM
CS(=O)(=O)c1ccc2c(c1)CCN2C(=O)COc1cc(Cl)cc(Oc2cc(Cl)cc(C#N)c2)c1,,,<20 µM
Cc1nnc(CN2CCn3c(nc(C(=O)NCc4ccc(F)cc4)c(O)c3=O)C2(C)C)o1,,,<1 µM
CN(C)c1ccc2c(COc3ccc(Cl)c(Oc4cc(Cl)cc(C#N)c4)c3)[nH]nc2n1,,,<20 µM
CC(C)[C@H](NC(=O)OCc1ccccn1)C(=O)N[C@@H](Cc1ccccc1)[C@@H](O)C[C@H](Cc1ccccc1)NC(=O)OCc1cccnc1,NL4-3,PR-M46I L63P V82T I84V,3 µM
Cc1cc(OCc2nc3ccccc3s2)cc(Oc2cc(Cl)cc(C#N)c2)c1,,,<20 µM
O=C1c2c(O)c(=O)n(C3CCCCC3)c(=O)n2CCN1Cc1ccc(F)cc1,,,<10 µM

A second listing of 2 rows from above:

smiles,strain or isolate,mutations,value
CN(C)c1ccc2c(COc3ccc(Cl)c(Oc4cc(Cl)cc(C#N)c4)c3)[nH]nc2n1,,,<20 µM
COC1CN(c2ccc3c(COc4ccc(Cl)c(Oc5cc(Cl)cc(C#N)c5)c4)[nH]nc3n2)C1,,,<20 µM

ECn: concentration that inhibits the pathogen or its effect by n%. Lines come from different laboratories, so protocols vary.